A mixed list of measured activities; the numbers were collected in NIAID ChemDB.

Common to all: whole-cell or culture tests; agent: HIV-1; method: luciferase; measure: EC50

Rows are shuffled and stem from different studies. Blank or dashed fields: not listed here. ECn: concentration that inhibits the pathogen or its effect by n%.

smiles,cell line,conditions,mutations,strain,result
COc1cnc(-c2cnc(N)cn2)c2[nH]cc(C(=O)C(=O)N3CCC(=C(C#N)c4ccccn4)CC3)c12,HeLa,,,,<1 µM
C=C1[C@H](O)C[C@@H]([C@@](C)(O)CCC=C(C)C)[C@@H](O)[C@@H]2C(C)=CC[C@@H]12,293T,pseudotyped,,,>30 µM
C=C(C)[C@@H]1CC[C@]2(C(=O)O)CC[C@]3(C)[C@H](CC[C@@H]4[C@@]5(C)CC=C(c6cccc(S(=O)(=O)NC)c6)C(C)(C)[C@@H]5CC[C@]43C)[C@@H]12,MT-2,,Gag P373S,NL4-3,1 µM
C=C1C[C@H](O)[C@@H]([C@@](C)(O)CCC=C(C)C)[C@@H](O)[C@@H]2C(C)=CC[C@@H]12,293T,pseudotyped,,,>30 µM
COc1ccc(N(C)C(=O)[C@H](Cc2cc(F)cc(F)c2)NC(=O)CN2c3ccccc3N(CC(=O)N[C@@H](Cc3cc(F)cc(F)c3)C(=O)N(C)c3ccc(OC)nc3)S2(=O)=O)cn1,MT-2,,,NL4-3,0.01 µM
COCC#CC(=C1CCN(C(=O)C(=O)c2c[nH]c3c(OC)ncc(OC)c23)CC1)c1ccccc1,HeLa,,,,<1 µM
CN=C(c1ccccc1)N1CCN(C(=O)C(=O)c2c[nH]c3cccc(F)c23)CC1,HeLa(CD4+) + HeLa,,,Luciferase reporter virus,>0.5 µM
COc1cnc(-n2cnc(C)n2)c2[nH]cc(C(=O)C(=O)N3CCN(C(=O)c4ccccc4)CC3)c12,U-87,,M426P,NL4-3,0.0099 µM
Cc1ccc2ccc(C)c(-n3c(SCC(=O)Nc4ccc(S(N)(=O)=O)cc4Cl)nnc3C(F)(F)F)c2c1,HeLa + HeLa-JC53,,RT-Y188L,NL4-3,0.026 µM
O=C(Cn1ccc(=O)[nH]c1=O)Nc1ccccn1,TZM-bl,,,UG070,113 µM
COc1ccc(N(C)C(=O)[C@H](Cc2cc(F)cc(F)c2)NS(=O)(=O)CS(=O)(=O)N[C@@H](Cc2cc(F)cc(F)c2)C(=O)N(C)c2ccc(OC)cc2)cc1,MT-2,,,NL4-3,0.48 µM
Cc1nnc(C(=O)NC(C)(C)c2nc(C(=O)NCc3ccc(F)cc3)c(O)c(=O)n2C)o1,TZM-bl,,,SF162,0.00219 µM
Cc1ccc(C)c(N/N=C/c2ccc3cccc(O)c3n2)c1,TZM-bl,,,VB59,9.61 µM
Cc1cc(C)c(Oc2nc(Nc3ccc(C#N)cc3)nc3sccc23)c(C)c1,HeLa,,,,<0.01 µM
Cc1ccc(N/N=C/c2ccc3cccc(O)c3n2)cc1,TZM-bl,,,VB59,45.83 µM
Cc1cc(N(C)C(=O)[C@H](Cc2ccccc2)NC(=O)NS(=O)(=O)N[C@@H](Cc2ccccc2)C(=O)N(C)c2ccc(C#N)c(C)c2)ccc1C#N,MT-2,,,NL4-3,2.74 µM
C[C@@H]1CCO[C@H]2Cn3cc(C(=O)NCc4ccc(F)cc4F)c(=O)c(O)c3C(=O)N12,TZM-bl,,M184I,NL4-3,0.001 µM
C#C[C@@]1(COP(=O)(O)OP(=O)(O)OP(=O)(O)O)C=C[C@H](n2cc(C)c(=O)[nH]c2=O)O1,TZM-bl,,,NL4-3,0.45 µM
Cc1nnc(SCC(=O)Nc2ccccc2Br)n1-c1cccc2cccnc12,HeLa + HeLa-JC53,,RT-Y188L,NL4-3,4.2 µM
Cc1cn(CC(=O)Nc2ccccn2)c(=O)[nH]c1=O,TZM-bl,,,ADA5,26 µM
Cc1ccc(N/N=C/c2ccc3cccc(O)c3n2)c(C)c1,TZM-bl,,,UG070,38.78 µM
C=C(C)[C@@H]1CC[C@]2(CO)CC[C@]3(C)[C@H](CC[C@@H]4[C@@]5(C)CC=C(c6ccc(C(=O)O)c(F)c6)C(C)(C)[C@@H]5CC[C@]43C)[C@@H]12,MT-2,,Gag P373S,NL4-3,1 µM
Oc1cccc2ccc(/C=N/Nc3cccc(C(F)(F)F)c3)nc12,TZM-bl,,,VB59,24.78 µM
CC[C@]1(CO)O[C@@H](n2cnc3c(N)ncnc32)C[C@@H]1O,HOS,,(delta)Env,,0.221 µM
CN(C(=O)[C@H](Cc1cc(F)cc(F)c1)NS(=O)(=O)CS(=O)(=O)N[C@@H](Cc1cc(F)cc(F)c1)C(=O)N(C)c1ccc2scnc2c1)c1ccc2scnc2c1,MT-2,,,NL4-3,0.08 µM
Nc1c(C(=O)NCc2ccc(F)cc2F)c(=O)n(O)c2ncc(CCCCCCO)cc12,HOS,,,,<0.004 µM
COc1cnc(-n2ccnn2)c2[nH]cc(C(=O)C(=O)N3CCN(C(=N)c4ccccc4)CC3)c12,HeLa(CD4+) + HeLa,,,Luciferase reporter virus,<0.5 µM
COc1cccc2[nH]cc(C(=O)C(=O)N3CCN(C(=O)c4ccccc4)CC3)c12,HeLa + HELA CD4+/CCR5,,,,<10 µM
Cc1ccnc2c1NC(=O)c1cccnc1N2C1CC1,HEK293T,,N348I,p8.9,235 nM
C[C@@H]1CN(C(=O)c2ccccc2)CCN1C(=O)C(=O)c1c[nH]c2c(Br)ccc(F)c12,HeLa + HELA CD4+/CCR5,,,,<10 µM
Oc1cccc2ccc(/C=N/Nc3ccc(Cl)cc3)nc12,TZM-bl,,,VB59,88.4 µM
Cc1cc(C)c(Oc2nc(Nc3ccc(C#N)cc3)nc3ccsc23)c(C)c1,HeLa,,,,<0.01 µM
CC(=O)OCCCc1cnc2c(c1)c(N)c(C(=O)NCc1ccc(F)cc1F)c(=O)n2O,HOS,,AGC (GGGAGC),,<0.003 µM
C=C(C)[C@@H]1CC[C@]2(C(=O)O)CC[C@]3(C)[C@H](CC[C@@H]4[C@@]5(C)CC=C(c6ccc(C(=O)O)s6)C(C)(C)[C@@H]5CC[C@]43C)[C@@H]12,MT-2,,Gag P373S,NL4-3,1 µM
Cc1cc(C)c2ccccc2c1-n1c(C)nnc1SCC(=O)Nc1ccccc1Br,HeLa + HeLa-JC53,,RT-Y188L,NL4-3,0.089 µM
Cc1cc(C#N)cc(C)c1Oc1nc(Nc2ccc(C#N)cc2)nc2sccc12,HeLa,,,Y-188L,<0.01 µM
CC(C)=CCC[C@](C)(O)[C@@H]1CC=C(C)[C@@H]2CC=C(C)[C@H]2[C@@H]1O,293T,pseudotyped,,,>30 µM
Cc1ccc2c(C)ccc(-n3c(C)nnc3SCC(=O)Nc3ccc(S(N)(=O)=O)cc3Cl)c2n1,HeLa + HeLa-JC53,,RT-Y188L,NL4-3,0.015 µM
C=C(C)[C@@H]1CC[C@]2(C(=O)O)CC[C@]3(C)[C@H](CC[C@@H]4[C@@]5(C)CC=C(c6ccc(C(=O)O)c(Cl)c6)C(C)(C)[C@@H]5CC[C@]43C)[C@@H]12,MT-2,,Gag P373S,NL4-3,1 µM
CC(C)=CCC[C@@H](C)[C@@H]1[C@H](O)C/C(C)=C/C/C=C(/C=O)[C@H]1C=O,293T,pseudotyped,,,>30 µM
COc1cnc(-c2cc(C)[nH]n2)c2[nH]cc(C(=O)C(=O)N3CCC(=C(c4ccccc4)c4nnc(C)o4)CC3)c12,HeLa,,,,<1 µM
COc1ccc(N(C)C(=O)[C@H](Cc2ccccc2)NC(=O)[C@H](C)NC(=O)N[C@@H](C)C(=O)N[C@@H](Cc2ccccc2)C(=O)N(C)c2ccc(OC)cc2)cc1,MT-2,,,NL4-3,0.13 µM
O=C(C(=O)N1CCN(C(=O)c2ccccc2)CC1)c1c[nH]c2c(Br)ccc(OC(F)(F)F)c12,HeLa + HELA CD4+/CCR5,,,,<10 µM
Cc1ccc(-n2c(C)nnc2SCC(=O)Nc2ccc(C(C)C)cc2Br)cc1,HeLa + HeLa-JC53,,RT-K103N Y181C,NL4-3,>10 µM
N#CN=C(c1ccccc1)N1CCN(C(=O)C(=O)c2c[nH]c3cc(F)cc(F)c23)CC1,HeLa(CD4+) + HeLa,,,Luciferase reporter virus,<0.5 µM
COc1ccnc2[nH]cc(C(=O)C(=O)N3CCC(=C(C#N)c4ccccc4)CC3)c12,HeLa,,,,<1 µM
O=C(Cn1ccc(=O)[nH]c1=O)Nc1ccc(Br)cn1,TZM-bl,,,IIIB,65 µM
Oc1cccc2ccc(/C=N/Nc3ccc(F)cc3)nc12,TZM-bl,,,UG070,68.86 µM
COc1cc2c(cc1Cc1cccc(Cl)c1F)c(=O)c(C(=O)O)cn2[C@H](CO)C(C)C,HOS,,+G insertion (GGGGAGT),,<0.001 µM
C[C@@H]1CN(C(=O)c2ccccn2)CCN1C(=O)C(=O)c1c[nH]c2c(C#N)cccc12,HeLa + HELA CD4+/CCR5,,,,<10 µM
CC(=O)OC/C1=C/C/C=C(\C)C[C@@H](O)[C@@H]([C@H](C)CCC=C(C)C)[C@@H]1CO,293T,pseudotyped,,,>30 µM
Cc1cc(C#N)cc(C)c1Oc1nc(Nc2ccc(C#N)cc2)nc2ccsc12,HeLa,,,,<0.01 µM
COc1ccc(N(C)C(=O)[C@H](Cc2ccccc2)NC(=O)NC(=O)N[C@@H](Cc2ccccc2)C(=O)N(C)c2ccc(OC)cc2)cc1,MT-2,,,NL4-3,4.71 µM
Cc1cc(S(N)(=O)=O)ccc1NC(=O)COc1ccc(Cl)cc1C(=O)c1cc(F)cc(C(F)(F)F)c1,HELA MAGI,,RT-V106I,IIIB,0.0025 µM
COc1ccc(N(C)C(=O)[C@H](Cc2ccccc2)NC(=O)c2cncc(C(=O)N[C@@H](Cc3ccccc3)C(=O)N(C)c3ccc(OC)cc3)c2)cc1,MT-2,,,NL4-3,0.02 µM
C=C(C)[C@@H]1CC[C@]2(CO)CC[C@]3(C)[C@H](CC[C@@H]4[C@@]5(C)CC=C(c6ccc(C(=O)O)cc6Cl)C(C)(C)[C@@H]5CC[C@]43C)[C@@H]12,MT-2,,Gag P373S,NL4-3,1 µM
COc1cnc(-c2cnccn2)c2[nH]cc(C(=O)C(=O)N3CCC(=C(c4ccccc4)c4cnco4)CC3)c12,HeLa,,,,<1 µM
O=C(CCC(=O)n1cnc2c([N+](=O)[O-])cccc21)n1cnc2c([N+](=O)[O-])cccc21,TZM-bl,,,UG070,29.41 µM
Cc1ccc(-n2c(C)nnc2SCC(=O)Nc2ccc(Oc3ccccc3)cc2)cc1,HeLa + HeLa-JC53,,RT-K103N Y181C,NL4-3,>10 µM
COc1ncc(OC)c2c(C(=O)C(=O)N3CCN(C(=NC#N)c4ccccc4)CC3)c[nH]c12,HeLa(CD4+) + HeLa,,,Luciferase reporter virus,<0.5 µM
Cc1cc(C(=O)N2CCN(C(=O)C(=O)c3c[nH]c4c(F)ccc(F)c34)CC2)oc1C,HeLa + HELA CD4+/CCR5,,,,<10 µM
Cc1nnc(SCC(=O)Nc2ccc(S(N)(=O)=O)cc2Cl)n1-c1cccc2ccccc12,HeLa + HeLa-JC53,,RT-Y188L,NL4-3,0.19 µM
Nc1c(C(=O)NCc2ccc(F)cc2F)c(=O)n(O)c2ncc(CCS(=O)(=O)CCN3CCOCC3)cc12,HOS,,AGC (GGGAGC),,0.0854 µM
O=C(CCC(=O)Nc1ccc([N+](=O)[O-])cn1)Nc1ccc([N+](=O)[O-])cn1,TZM-bl,,,VB59,191.6 µM
CN(C(=O)[C@H](Cc1cc(F)cc(F)c1)NC(=O)NS(=O)(=O)N[C@@H](Cc1cc(F)cc(F)c1)C(=O)N(C)c1ccccc1)c1ccccc1,MT-2,,,NL4-3,0.09 µM
CCc1ccccc1N/N=C/c1ccc2cccc(O)c2n1,TZM-bl,,,UG070,10.09 µM
C=C(C)[C@@H]1CC[C@]2(CO)CC[C@]3(C)[C@H](CC[C@@H]4[C@@]5(C)CC=C(c6cc(C(=O)O)no6)C(C)(C)[C@@H]5CC[C@]43C)[C@@H]12,MT-2,,Gag P373S,NL4-3,1 µM
CC(=O)Oc1cccc(C(=O)N2CCN(C(=O)C(=O)c3c[nH]c4cccc(Cl)c34)CC2)c1,HeLa + HELA CD4+/CCR5,,,,<10 µM
N#CN=C(c1ccccc1)N1CCN(C(=O)C(=O)c2c[nH]c3c(-n4ccnn4)ncc(F)c23)CC1,HeLa(CD4+) + HeLa,,,Luciferase reporter virus,<0.5 µM
O=C(Cn1ccc(=O)[nH]c1=O)Nc1ccc([N+](=O)[O-])cn1,TZM-bl,,,UG070,2.4 µM
C=C(C)[C@@H]1CC[C@]2(CO)CC[C@]3(C)[C@H](CC[C@@H]4[C@@]5(C)CC=C(c6ccc(C(=O)O)c(O)c6)C(C)(C)[C@@H]5CC[C@]43C)[C@@H]12,MT-2,,Gag P373S,NL4-3,1 µM

For reference, 10 entries again:

| smiles | cell line | conditions | mutations | strain | result |
|---|---|---|---|---|---|
| Cc1nnc(SCC(=O)Nc2ccccc2Br)n1-c1cccc2cccnc12 | HeLa + HeLa-JC53 |  | RT-Y188L | NL4-3 | 4.2 µM |
| Cc1cc(C#N)cc(C)c1Oc1nc(Nc2ccc(C#N)cc2)nc2ccsc12 | HeLa |  |  |  | <0.01 µM |
| Cc1ccc(-n2c(C)nnc2SCC(=O)Nc2ccc(Oc3ccccc3)cc2)cc1 | HeLa + HeLa-JC53 |  | RT-K103N Y181C | NL4-3 | >10 µM |
| Cc1ccc2c(C)ccc(-n3c(C)nnc3SCC(=O)Nc3ccc(S(N)(=O)=O)cc3Cl)c2n1 | HeLa + HeLa-JC53 |  | RT-Y188L | NL4-3 | 0.015 µM |
| Nc1c(C(=O)NCc2ccc(F)cc2F)c(=O)n(O)c2ncc(CCS(=O)(=O)CCN3CCOCC3)cc12 | HOS |  | AGC (GGGAGC) |  | 0.0854 µM |
| C[C@@H]1CN(C(=O)c2ccccn2)CCN1C(=O)C(=O)c1c[nH]c2c(C#N)cccc12 | HeLa + HELA CD4+/CCR5 |  |  |  | <10 µM |
| Cc1ccc(N/N=C/c2ccc3cccc(O)c3n2)cc1 | TZM-bl |  |  | VB59 | 45.83 µM |
| COc1cnc(-c2cc(C)[nH]n2)c2[nH]cc(C(=O)C(=O)N3CCC(=C(c4ccccc4)c4nnc(C)o4)CC3)c12 | HeLa |  |  |  | <1 µM |
| COc1ccc(N(C)C(=O)[C@H](Cc2ccccc2)NC(=O)c2cncc(C(=O)N[C@@H](Cc3ccccc3)C(=O)N(C)c3ccc(OC)cc3)c2)cc1 | MT-2 |  |  | NL4-3 | 0.02 µM |
| C=C(C)[C@@H]1CC[C@]2(CO)CC[C@]3(C)[C@H](CC[C@@H]4[C@@]5(C)CC=C(c6ccc(C(=O)O)c(F)c6)C(C)(C)[C@@H]5CC[C@]43C)[C@@H]12 | MT-2 |  | Gag P373S | NL4-3 | 1 µM |